Assay in all cases: pseudovirus neutralization IC50; higher = weaker neutralization
Test [1] has as its target SARS-CoV-2 Omicron BA.1 spike pseudovirus. The procedure: (§1)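 Single-round VSV luciferase pseudovirus mixed with antibody dilutions for 1 h and put on Huh-7 cells for about a day; IC50 from the dose curve.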
Test [2] deals with SARS-CoV-2 Omicron BA.2 spike pseudovirus. The procedure: as §1
For test [3], the target named is SARS-CoV-2 Omicron BA.2.75 spike pseudovirus. The method, then:
as §1

Test [4] deals with SARS-CoV-2 Omicron BA.5 spike pseudovirus. The procedure: as §1
Test [5] has as its target SARS-CoV-2 Omicron BQ.1.1 spike pseudovirus. The method, then:
as §1

Test [6] deals with SARS-CoV-2 Omicron XBB spike pseudovirus. The procedure: as §1
The target of test [7] is SARS-CoV-2 early D614G spike pseudovirus. The procedure: as §1

Human monoclonal antibodies against the spike receptor-binding domain (heavy:light variable regions). IC50 against pseudoviruses bearing the spike of naturally observed variants; lower = stronger; >10 µg/ml means not reached at the top dose. No active / inactive call. The stated detection limit is 0.0005 µg/ml; values near or below 0.001 µg/ml lie at the floor of the assay.

B1: BD57-023 (protein)
chain 1: QITLKESGPTLVKPTQTLTLTCTFSGFSLSTGGVAVGWIRQPPGKALEWLALIYWDDDKRYSPSLKSRLSITKDTSKNQVVLTMTNMDPVDTATYYCVHSGYNAYGDWEGFDFWGQGTLVAVSS
chain 2: SYELTQPPSVSVSPGQTARITCSADTFPKQYTYWYQQKAGQAPVLVIYKDTERPSGIPERFSGSSSGTIVTLSISGVRAEDEADYYCHSADSSGAYPVVFGGGTKLTVL
B1: the “pseudovirus neutralization IC50” value was 0.0231 µg/mL in test [1]; 0.00111 µg/mL in test [2]; 0.0286 µg/mL in test [3]; 0.00175 µg/mL in test [4]; greater than 10 µg/mL in test [5]; greater than 10 µg/mL in test [6]. The “pseudovirus neutralization IC50” value in test [7] was determined as 0.0015 µg/mL.

B2: BD57-030 (protein)
chain 1: EVQLVESGGGLVQPGRSLRLSCAASGFTFDEYAMHWVRQAPGKGLEWVSGISWNSGVIGYADSVRGRFIISRDNAKNSLYVQMKSLRAEDTALYYCAKGKGDCSSTSCSGAYGMDVWGQGTTVTVSS
chain 2: QSALTQPASVSGSPGQSITISCTGTSSDVGGYNYVSWYQQHPGKAPKLMIYDVSNRPSGVSNRFSGSTSGNTASLTISGLQAEDEADYFCSSFAITDTLVFGGGTKLTVL
Regarding B2, the “pseudovirus neutralization IC50” value was 1.69 µg/mL in test [1]; 2.11 µg/mL in test [2]; 2.09 µg/mL in test [3]; 4.04 µg/mL in test [4]; greater than 10 µg/mL in test [5]; greater than 10 µg/mL in test [6]. The “pseudovirus neutralization IC50” value in test [7] is 0.0152 µg/mL.

B3: BD57-049 (protein)
chain 1: QMQLVQSGPEVKKPGTSAKVACQASGFTFYSSAIQWVRQARGQRLEWIGWIVVGSGNTNYAEEFQERVTITRDMSTSTAYMELSSLRSGDTAVYYCAAPHCNRTSCYDGFDIWGQGTMVTVSS
chain 2: EIVLTQSPGTLSLSPGERATLSCRASQSVSSNYLAWYQQKPGQAPRLLIYGASSRATGIPDRFSGSGSGTDFTLTISRLEPEDFAVYYCQHYGGSLFTFGPGTKVDIK
Turning to B3, the “pseudovirus neutralization IC50” value in test [1] is 0.00651 µg/mL; in test [2], 0.00857 µg/mL; in test [3], 0.00839 µg/mL; in test [4], 0.134 µg/mL; in test [5] it was 3.63 µg/mL; in test [6], greater than 10 µg/mL. Besides, in test [7], the “pseudovirus neutralization IC50” value worked out at 0.00156 µg/mL.

B4: BD57-027 (protein)
chain 1: EVQLVESGGGLVQPGGSLRLACAASGVTVSSNYMSWVRQAPGKGLEWVSILYSGGSTFYADSVKGRFTISRDNSKNTLYLQMNSLRAEDTAVYYCARDLLEAGGTDQWGQGTLVTVSS
chain 2: EIVLTQSPGTLSLSPGERATLSCRASQSISSSSLAWYQQKPGQAPSLLIYGASSRATGIPDRFSGSGSGTDFTLTISRLEPEDFAVYYCQQYGSSPGYTFGQGTKLEIK
Take B4: the “pseudovirus neutralization IC50” value was found to be 0.0212 µg/mL in test [1]; 0.0161 µg/mL in test [2]; 0.0298 µg/mL in test [3]; 0.0139 µg/mL in test [4]; 0.162 µg/mL in test [5]; 0.12 µg/mL in test [6]. Besides, in test [7], the “pseudovirus neutralization IC50” value turned out to be 0.0143 µg/mL.

B5: BD57-039 (protein)
chain 1: QVTLRESGPALVKPTQTLTLTCTFSGISVSTVGMCVSWIRQPPGKALEWLARIDWDDDKYYNTSLKTRLTISKDISRNQVVLTMTNMNPVDTATYYCAQILGYSSPEPYGMDVWGQGTTVTVSS
chain 2: DIQMTQSPSSLSASVGDRVTITCRASQGIRNYLAWYQQKPGKVPKLLIYTASTLQSGVPSRFSGSGSGTDFTLTISSLQAEDVATYYCQKYNSAPFTFGPGTKVDIK
In the case of B5, the “pseudovirus neutralization IC50” value is 0.436 µg/mL in test [1]; 0.275 µg/mL in test [2]; 0.276 µg/mL in test [3]; 0.232 µg/mL in test [4]; greater than 10 µg/mL in test [5]; greater than 10 µg/mL in test [6]. Moreover, the “pseudovirus neutralization IC50” value in test [7] was 0.325 µg/mL.

B6: BD57-047 (protein)
chain 1: QVQLVQSGAEVKKPGSSVKVSCKASGGTFSSYAINWVRQAPGQGLEWMGRIISMFDIANYAQNFQGRVTITADKSTSTAYMELNSLRSEDTAVYYCATTKFFYDPGVGYYFDYWGQGTLVTVSS
chain 2: EIVLTQSPGTLSLSPGERATLSCRASQNLGSNYLAWYQQKPGQAPRLLIYGASSRATGIPDRFSGSGSGTDFILTISRLEPEDFAVYYCQQYDTSRTFGQGTKVEIK
As for B6, the “pseudovirus neutralization IC50” value is 0.0147 µg/mL in test [1]; 0.0283 µg/mL in test [2]; 0.00641 µg/mL in test [3]; greater than 10 µg/mL in test [4]; greater than 10 µg/mL in test [5]; greater than 10 µg/mL in test [6]. Moreover, the “pseudovirus neutralization IC50” value in test [7] came to 0.00867 µg/mL.

B7: BD57-032 (protein)
chain 1: QVQLVESGGGLVKPGGSLRLSCATSGFTFNDYDMRWIRQAPGKGLEWVSYISKSGSTIYYAGSVKGRFTISRENARNSLYLQMNSLRAEDTAVYYCARDLWTISSGWYALDGQAFDYWGQGTLVTVSS
chain 2: QSVLTQPPSVSGAPGQRVTISCTGSSSNIGAGYDVHWYQQLPGTAPKLLIYGNSNRPSGVPDRFSGSKSGTSASLAITGLQAEDEADYYCQSYDSSLSAPYWVFGGGTKLTVL
Consider B7, for which the “pseudovirus neutralization IC50” value in test [1] is 0.283 µg/mL; in test [2], 1.64 µg/mL; in test [3] it was 1.56 µg/mL; in test [4], 1.64 µg/mL; in test [5], 1.83 µg/mL; in test [6], 2.08 µg/mL. In test [7], the “pseudovirus neutralization IC50” value was 0.0378 µg/mL.

B8: BD57-034 (protein)
chain 1: EVQLVESGGGLVQPGRSLRLSCTASGFTFEDYAMHWVRQAPGKGLEWVSGTSWNSGTIGYADSVKGRFIIIRDNAKNSLYLQMNSLRAEDTALYYCAKDLIAVGGTLLEEYALDVWGQGTTVTVSS
chain 2: QSALTQPASVSGSHGQSITISCTGTSSDVGGYNYVSWYQQHPGKAPKLMIYDVSKRPSVVSNRFSGSKYGNKASLTISGLQAEDEADYYCSSYTSSSTVVFGGGTKLTVL
Turning to B8, the “pseudovirus neutralization IC50” value was 0.0269 µg/mL in test [1]; 0.0308 µg/mL in test [2]; 0.0251 µg/mL in test [3]; 0.174 µg/mL in test [4]; greater than 10 µg/mL in test [5]; 0.666 µg/mL in test [6]. Besides, the “pseudovirus neutralization IC50” value in test [7] is 0.0107 µg/mL.

B9: BD57-042 (protein)
chain 1: QVHLVQSGAEVKKPGASLTVSCQASGYTFNNYALHWVRQAPGQRLEWMGWIHPGLGNTKYSQKFQGRVTITRDTSARTAFMELTSLKSEDTAVYYCARDIEAAAETFDYWGQGTLVTVSS
chain 2: DIQMTQSPSTLSASVGDRVTITCRASQNINSWLAWYQQKPGKAPKFLIYDASSLKSGVPSRFSGSGSGTDFTLTISSLQPDDFATYYCQQYKSDPTFGQGTKVEIK
Regarding B9, the “pseudovirus neutralization IC50” value in test [1] was 0.00543 µg/mL; in test [2] it was 0.00123 µg/mL; in test [3], 0.00337 µg/mL; in test [4], 0.298 µg/mL; in test [5] it was greater than 10 µg/mL; in test [6] it was greater than 10 µg/mL. Besides, in test [7], the “pseudovirus neutralization IC50” value turned out to be 0.00592 µg/mL.

B10: BD57-025 (protein)
chain 1: EVQLVESGGGLIQPGGSLRLSCAASGVTVSSNYMSWVRQAPGKGLEWVSLIYPGGSTYYADSVKGRFTISRDNSKNTLYLQMNSLRAEDTAVYYCARDGMGLGGADYWGQGTLVTVSS
chain 2: DIQMTQSPSSLSPSVGDRVTITCQASQDINIFLNWYQQKPGKAPKLLIYDASNLETGVPSRFSGSGSGTDFTFTISSLQPEDIATYYCQQYDNLPRTFGQGTKLEIK
In the case of B10, the “pseudovirus neutralization IC50” value in test [1] is 0.00119 µg/mL; in test [2] it was 0.000801 µg/mL; in test [3], greater than 10 µg/mL; in test [4], 0.00976 µg/mL; in test [5] it was greater than 10 µg/mL; in test [6] it was greater than 10 µg/mL. Besides, the “pseudovirus neutralization IC50” value in test [7] turned out to be 0.00541 µg/mL.

B11: BD57-026 (protein)
chain 1: EVQLSESGGGLVQPGGSLRLSCVASGFSFSRYDMTWVRQAPGKGLEWVSVIDSGGSTTYYADSVQGRFTISRDNSKNTLYLQMNSLRAGDTAVYYCAKDFLPGNTGHYGGLDYWGQGTLVTVSS
chain 2: AIRMTQSPSSFSASTGDRVTITCRASQAISSYLAWYQQKPGKAPKFLIYAASTLQSGVPSRFSGSGSGTEFTLTISFLQSEDFATYYCQQYYSYPLTFGGGTKVEIK
In the case of B11, the “pseudovirus neutralization IC50” value in test [1] was 0.298 µg/mL; in test [2], 0.273 µg/mL; in test [3] it was 0.373 µg/mL; in test [4], 1.77 µg/mL; in test [5], greater than 10 µg/mL; in test [6], greater than 10 µg/mL. The “pseudovirus neutralization IC50” value in test [7] turned out to be 0.0673 µg/mL.

B12: BD57-028 (protein)
chain 1: QITLKESGPTLVKPTQTLTLTCTFSGFSLSASGEGMGWIRQPPGKALEWLALIYWDADERYSPSLRSRLTITKDTSKNQVVLKMTNMNPVDTATYYCAHHSITTVVDYWGQGMLVTVSS
chain 2: QSALTQPASVSGSPGQSITISCTGTISDVGAFNYVSWYQQHPGRAPKLIIYDVSTRPSGISIRFSGSKSGNTASLTISGLQPEDEADYYCSSYSHTSLVFGTGTKVTVL
Consider B12, for which the “pseudovirus neutralization IC50” value in test [1] stood at 0.00623 µg/mL; in test [2], 0.00588 µg/mL; in test [3], 0.00736 µg/mL; in test [4], 0.00568 µg/mL; in test [5], 4.91 µg/mL; in test [6], 4.58 µg/mL. Further, the “pseudovirus neutralization IC50” value in test [7] came out at 0.00194 µg/mL.

Source of the values: the supplement of paper PMC9931576.
